Measured data: PubChem BioAssay AID624099 (ICCB-Longwood, 2012)

Assay: 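Human genes that papillomavirus E2 requires to repress the HPV18 LCR promoter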 (primary screen)
System: human C33A cervical carcinoma cells (HPV-negative) stably expressing BPV1 E2 and an HPV18 LCR luciferase reporter
Knock-down reagent: siRNA pool against human genes, 40 nM
Time to read-out: 72 h
Measured: 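HPV18 LCR reporter light per well, converted to plate-wise z-scores that exclude control wells, and averaged over triplicate plates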
Reading the numbers: mean z-score and z-score: higher = stronger reporter signal, weaker E2 silencing
Call rule: 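Mean z ≥ 2 together with z ≥ 2 in two or more of the three replicates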
Here is one part, drawn at random, of about 21,000 reagents tested. Over the whole deposit, 497 (2.4%) are marked active. 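Higher z means weaker E2 silencing; only reporter increases were scored, and knock-downs that hurt cell survival may mask genuine repressor factors.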 Reagents against one gene are numbered here.

| Target gene | reagent no. | mean z-score | z-score, replicate A | z-score, replicate B | z-score, replicate C | call |
| --- | --- | --- | --- | --- | --- | --- |
| BTN3A3 (GeneID 10384) | 1 | 0.46 | 0.39 | 0.23 | 0.75 | inactive |
| RNFT2 (GeneID 84900) | 1 | -1.08 | -1.28 | -1.11 | -0.86 | inactive |
| LOC389624 (retired record) (GeneID 389624) | 1 | 0.68 | 0.42 | 0.67 | 0.95 | inactive |
| DOCK4 (GeneID 9732) | 1 | -0.56 | -0.7 | -0.49 | -0.48 | inactive |
| DCDC2 (GeneID 51473) | 1 | -0.35 | -0.09 | -0.77 | -0.21 | inactive |
| PLPP5 (GeneID 84513) | 1 | -0.07 | -0.35 | -0.01 | 0.14 | inactive |
| SEC24C (GeneID 9632) | 1 | -0.5 | -0.47 | -0.63 | -0.41 | inactive |
| LEMD2 (GeneID 221496) | 1 | 0.03 | -0.14 | -0.36 | 0.58 | inactive |
| CYTH2 (GeneID 9266) | 1 | -0.75 | -0.66 | -0.94 | -0.64 | inactive |
| GRAMD4 (GeneID 23151) | 1 | 0.21 | -0.02 | 0.06 | 0.59 | inactive |
| TRPC4AP (GeneID 26133) | 1 | -0.12 | -0.17 | -0.28 | 0.1 | inactive |
| ARMCX4 (GeneID 100131755) | 1 | -1.51 | -1.7 | -1.22 | -1.6 | inactive |
| ARMCX4 (GeneID 100131755) | 2 | -0.87 | -0.45 | -0.81 | -1.36 | inactive |
| ATP1A1 (GeneID 476) | 1 | 1.04 | 0.96 | 1.1 | 1.06 | inactive |
| ESRRA (GeneID 2101) | 1 | -0.05 | 0.08 | -0.05 | -0.19 | inactive |
| CDK5RAP1 (GeneID 51654) | 1 | -0.55 | -0.95 | -0.18 | -0.53 | inactive |
| TRABD2A (GeneID 129293) | 1 | 0.1 | -0.03 | -0.13 | 0.47 | inactive |
| PTPRCAP (GeneID 5790) | 1 | -0.82 | -0.77 | -0.83 | -0.85 | inactive |
| SCUBE1 (GeneID 80274) | 1 | 0.38 | 0.68 | 0.37 | 0.1 | inactive |
| CENPQ (GeneID 55166) | 1 | 0.6 | -0.08 | 0.34 | 1.55 | inactive |
| P2RX1 (GeneID 5023) | 1 | 0.69 | 0.7 | 0.83 | 0.54 | inactive |
| ADCYAP1 (GeneID 116) | 1 | -0.7 | -0.69 | -0.86 | -0.56 | inactive |
| VWCE (GeneID 220001) | 1 | 0.23 | 0.11 | 0.23 | 0.36 | inactive |
